According to patent publication US20070224205:

Biological target: Toll-like Receptor 5, not stated, O60602 21-858
Test: cell-based or functional assay

## STF2Δ.EIII+
  TLR5 specific-activity relative to STF2.OVA: 10 fold
